Pooled drug test results. Numbers come from NIAID ChemDB, via PubChem.

Common to all: whole-cell or culture tests; agent: Mycobacterium tuberculosis

ECn: concentration that inhibits the pathogen or its effect by n%. MIC50, MIC90 and the like: level of inhibition, or share of isolates inhibited. An empty or dashed field is not shown. Inhibition is in % at the dose shown (toxicity tests: loss of growth or viability). MIC bound comes from a single tested concentration. Lines come from different laboratories, so protocols vary.

smiles | strain | changes | cells | method | setting | endpoint | tested at | value
CCCCCCCOc1ccccc1NC(=O)OCCN1CCCCC1 | My 331/88 |  |  |  |  | MIC |  | 16 µM
CN1CCN(c2cc3c(=O)c(C(=O)O)c4n(c3cc2[N+](=O)[O-])CS4)CC1c1ccccc1 | H37Rv |  |  | agar |  | MIC |  | 3.45 µM
CO[C@H]1/C=C/O[C@@]2(C)Oc3c(C)c(O)c4c(O)c(c(/C=N/N5CCN(C/C=C/c6ccccc6)CC5)c(O)c4c3C2=O)NC(=O)/C(C)=C\C=C\[C@H](C)[C@H](O)[C@@H](C)[C@@H](O)[C@@H](C)[C@H](OC(C)=O)[C@@H]1C | MTB9 (RIF-R) |  |  |  |  | MIC |  | >8 µg/mL
O=C(O)c1c2n(c3cc([N+](=O)[O-])c(N4CCN(Cc5ccc6c(c5)OCO6)CC4)cc3c1=O)CS2 | H37Rv |  |  | agar |  | MIC |  | 0.79 µM
CC1(C)CCC[C@](C)([C@H]2CC[C@]3(C)[C@@H]2[C@H](O)C[C@@H]2[C@@]4(C)CC[C@H](O)C(C)(C)[C@@H]4[C@H](O)C[C@]23C)O1 | H37Rv |  |  | BACTEC |  | MIC bound |  | >12.5 µg/mL
O=C1CC(c2ccccc2)Oc2cc(Br)ccc21 |  |  |  |  |  | EC50 |  | <12.5 µg/mL
CC(CCCN)Nc1cc2c(c3cccnc13)OCCO2.O=P(O)(O)O | H37Rv |  |  | BACTEC |  | MIC |  | ≥12.5 µg/mL
CCCCCCOc1cccc(NC(=O)OCCN2CCCCC2)c1 | My 331/88 |  |  |  |  | MIC |  | 16 µM
CC(Nc1ccc2ccccc2c1)C(=O)NN | H37Rv |  |  |  |  | EC50 |  | 0.5 µg/mL
N#C/C(=C\c1ccccc1)n1nnc2ccccc21 |  |  |  |  |  | inhibition | 12.5 µg/mL | 98%
O=C1c2ccccc2OC(c2cccc(Cl)c2)C1O |  |  |  |  |  | inhibition | 12.5 µg/mL | 63%
O=C(NCc1ccccn1)c1cc(Cl)ccc1O | H37Rv |  |  |  | 21 d | MIC |  | 250 µM
COc1ccc(/C=N/N=c2\scc(-c3cc4cc(Br)ccc4oc3=O)n2Cc2ccccc2)cc1OC | H37Rv |  |  |  |  | inhibition | 6.25 µg/mL | <11%
CC(=O)C1(C)C(=O)N(c2ccc(Cl)cc2)C(=O)N1c1ccc(Cl)cc1 | H37Rv |  |  | BACTEC |  | MIC bound |  | >12.5 µg/mL
O=C(N/N=C/c1ccc([N+](=O)[O-])s1)c1ccc(F)cc1 | H37Rv |  |  |  |  | MIC |  | <6.25 µg/mL
CCCCCCCCCOc1cccc(NC(=O)OCCN(C)C)c1 | My 331/88 |  |  |  |  | MIC |  | 8 µM
O=C(O)CCCCCCCCCCCBr | H37Rv |  |  | BACTEC |  | MIC bound |  | >12.5 µg/mL
CCCCCN(CCCCC)C(=O)COc1cc2c(O)c3c(O)c(C)c4c(c13)C(=O)[C@@](C)(O/C=C/[C@H](OC)[C@@H](C)[C@@H](OC(C)=O)[C@H](C)[C@H](O)[C@H](C)[C@@H](O)[C@@H](C)/C=C/C=C(/C)C(=O)N2)O4 | H37Rv |  |  |  |  | MIC |  | 0.3 µg/mL
O=C1CC(c2ccccc2)Oc2ccc(Cl)cc21 |  |  |  |  |  | EC50 |  | >12.5 µg/mL
O=C(N/N=C/c1cccs1)c1ccc(Br)cc1 | H37Rv |  |  |  |  | EC50 |  | >6.25 µg/mL
NC1CCN(c2c(F)cc3c(=O)c(C(=O)O)cn(C4CC4)c3c2Cl)C1 | ATCC 35820 |  |  |  |  | MBC |  | 0.125 µg/mL
N#C/C(=C\c1ccc(N)cc1)n1nnc2ccccc21 |  |  |  |  |  | inhibition | 12.5 µg/mL | 33%
COc1ccc(/C=N/N=c2\scc(-c3cc4ccccc4oc3=O)n2Cc2ccccc2)cc1 | H37Rv |  |  |  |  | inhibition | 6.25 µg/mL | <11%
CC1=NN(c2cc(Cl)c(S(=O)(=O)O)cc2Cl)C(=O)C1N=Nc1ccc(S(=O)(=O)O)cc1 | H37Rv |  |  | BACTEC |  | MIC bound |  | >12.5 µg/mL
O=C(O)c1c2n(c3cc([N+](=O)[O-])c(N4CCC(N5CCCCC5)CC4)cc3c1=O)CS2 | H37Rv |  |  | agar |  | MIC |  | 1.75 µM
CC1CN(c2cc3c(cc2F)c(=O)c(C(=O)O)cn3-c2ccc(F)cc2F)CCN1 | ATCC 35830 |  |  |  |  | MBC |  | 2 µg/mL
Cc1ccc(/C=C(\C#N)n2nc3ccccc3n2)cc1 |  |  |  |  |  | EC50 |  | >12.5 µg/mL
CCOC(=O)C1CCC(C(=O)OCC)N1C(=O)COc1cc2c(O)c3c(O)c(C)c4c(c13)C(=O)[C@@](C)(O/C=C/[C@H](OC)[C@@H](C)[C@@H](OC(C)=O)[C@H](C)[C@H](O)[C@H](C)[C@@H](O)[C@@H](C)/C=C/C=C(/C)C(=O)N2)O4 | H37Rv |  |  |  |  | MIC |  | 0.37 µg/mL
N#C/C(=C\c1ccc(Br)cc1)n1nnc2ccccc21 |  |  |  |  |  | inhibition | 12.5 µg/mL | 99%
CC(O)C(NC(=O)OCc1ccccc1)C(=O)NC(CO)C(=O)NN | H37Rv |  |  | BACTEC |  | inhibition | 12.8 µg/mL | 23%
COc1ccc(/C=C/C(=O)c2c(O)cc(OC)cc2OC)cc1 |  |  |  |  |  | EC50 |  | >12.5 µg/mL
O=C(O)c1c2n(c3cc(F)c(N4CCN(C(=O)c5ccco5)CC4)cc3c1=O)CS2 | H37Rv |  |  | agar |  | MIC |  | 3.63 µM
C[N+](C)(C)CC(=O)N/N=C/c1ccc(O)cc1O.[Cl-] | H37Rv |  |  | BACTEC |  | inhibition | 12.5 µg/mL | 8%
Cc1ccc(C2SCC(=O)N2NC2=Nc3ccccc3Sc3ccccc32)cc1 | H37Rv |  |  | broth dilution |  | MIC |  | 1000 µg/mL
COc1cc2c(cc1OC)-c1c(C)c3ccc(OC)c(NCCO)c3c[n+]1CC2.[Cl-] | H37Rv |  |  | BACTEC |  | MIC bound |  | >12.5 µg/mL
NNC(=O)CNc1ccc2ccccc2c1 | Drug-resistant |  |  |  |  | inhibition | 1 µg/mL | 100%
COc1cccc(C(=O)NCc2cccnc2)c1O | H37Rv |  |  |  | 21 d | MIC |  | 500 µM
CCOC(=O)C(=O)Cc1nc2ccccc2[nH]c1=O | H37Rv |  |  | resazurin |  | inhibition | 6.25 µg/mL | 0%
CCCCCCCCCCOc1ccccc1NC(=O)OCCN1CCOCC1 | My 331/88 |  |  |  |  | MIC |  | 32 µM
O=c1oc2ccc(Br)cc2cc1-c1cs/c(=N\N=C\c2ccc(Cl)cc2)n1Cc1ccccc1 | H37Rv |  |  |  |  | inhibition | 6.25 µg/mL | <11%
O=C(O)c1c2n(c3cc([N+](=O)[O-])c(N4CCSCC4)cc3c1=O)CS2 | H37Rv |  |  | agar |  | MIC |  | 4.12 µM
COC(=O)CNC(=O)c1c2oc3c(C(=O)NCC(=O)OC)cccc3nc-2cc(N)c1=O | H37Rv |  |  | BACTEC |  | MIC bound |  | >12.5 µg/mL
CCCCCCCOc1ccccc1NC(=O)OCCN1CCOCC1 | My 331/88 |  |  |  |  | MIC |  | 62.5 µM
CC1COc2c(N3CCN(C)CC3)c(F)cc3c(=O)c(C(=O)O)cn1c23 | H37Rv |  |  |  |  | MIC |  | 0.25 µg/mL
CN(C(=O)c1ccco1)C(=S)N1CCN(c2ccccn2)CC1 | H37Rv |  |  | BACTEC |  | inhibition | 12.5 µg/mL | 11%
O=C(N/N=C/c1ccc([N+](=O)[O-])cc1)c1ccc(F)cc1 | H37Rv |  |  |  |  | MIC |  | >6.25 µg/mL
COc1ccc2c(c1)OC(c1cccc([N+](=O)[O-])c1)CC2=O | H37Rv |  |  |  |  | EC50 |  | >12.5 µg/mL
CCCN(C)C(=O)COc1cc2c(O)c3c(O)c(C)c4c(c13)C(=O)[C@@](C)(O/C=C/[C@H](OC)[C@@H](C)[C@@H](OC(C)=O)[C@H](C)[C@H](O)[C@H](C)[C@@H](O)[C@@H](C)/C=C/C=C(/C)C(=O)N2)O4 | H37Rv |  |  |  |  | MIC |  | 0.09 µg/mL
N[C@@H]1CN(c2c(F)cc3c(=O)c(C(=O)O)cn([C@@H]4C[C@@H]4F)c3c2Cl)CC12CC2 | Clinical strain | XDR |  | resazurin |  | MIC90 |  | 0.5 µg/mL
O=C(O)c1c2n(c3cc(F)c(N4CCSCC4)cc3c1=O)CS2 | H37Rv | MDR-TB |  | agar |  | MIC |  | 8.88 µM
CO[C@@H]1[C@H](O)[C@@H](C)O[C@@H](OC[C@H]2[C@@H]3O[C@H]3/C=C/C(=O)[C@@](C)(O)C[C@H](C)[C@@H](O[C@@H]3O[C@H](C)C[C@H](OC)[C@H]3O)[C@@H](C)/C=C/C(=O)O[C@@H]2C)[C@@H]1OC | H37Rv |  |  | BACTEC |  | inhibition | 12.8 µg/mL | 39%
CCCCOc1ccccc1NC(=O)OCCN1CCCCC1 | My 331/88 |  |  |  |  | MIC |  | 125 µM
COC(=O)c1cc(Cl)ccc1OCC(O)CNc1ccc(Cl)cc1C(=O)c1ccccc1 | H37Rv |  |  | resazurin |  | inhibition | 6.25 µg/mL | -9%
CO[C@H]1/C=C/O[C@@]2(C)Oc3c(C)c(O)c4c(O)c(c(N5CCN(Cc6c(C)cc(C)cc6C)CC5)c(O)c4c3C2=O)NC(=O)/C(C)=C\C=C\[C@H](C)[C@H](O)[C@@H](C)[C@@H](O)[C@@H](C)[C@H](OC(C)=O)[C@@H]1C | 131-4 |  |  |  |  | MBC |  | 0.06 µg/mL
N#C/C(=C/c1ccc(Cl)cc1)n1nc2ccccc2n1 |  |  |  |  |  | inhibition | 12.5 µg/mL | 12%
CC[C@H]1OC(=O)[C@H](C)[C@@H](O[C@H]2C[C@@](C)(OC)[C@@H](O)[C@H](C)O2)[C@H](C)[C@@H](O[C@@H]2O[C@H](C)C[C@H](N(C)C)[C@H]2O)[C@](C)(O)C[C@@H](C)CN(C)[C@H](C)[C@@H](O)[C@]1(C)O | ATCC 35830 |  |  |  |  | MBC |  | >8 µg/mL
COc1ccc(C2CC(=O)c3ccc(F)cc3O2)cc1 | H37Rv |  |  |  |  | inhibition | 12.5 µg/mL | 0%
Cc1ccc(NCCN2CCCCC2)c2c(=O)c3ccc(Cl)cc3sc12 | H37Rv |  |  | BACTEC |  | inhibition | 12.5 µg/mL | 99%
CCCCCCOc1cccc(NC(=O)OCCN2CCCCCC2)c1 | My 331/88 |  |  |  |  | MIC |  | 8 µM
O=c1oc2ccccc2cc1-c1cs/c(=N\N=C\c2cc(Br)ccc2O)n1Cc1ccccc1 | H37Rv |  |  |  |  | MIC |  | >6.25 µg/mL
COc1cc2c3c(c1OC)-c1cc4c(cc1CC3N(C=O)CC2)OCO4 | MMDO |  |  | resazurin |  | MIC |  | >50 µg/mL
Clc1ccc2nnnn2n1 | H37Rv |  | VERO |  |  | MIC |  | 6.25 µg/mL
O=C1CSC(c2cccc([N+](=O)[O-])c2)N1NC1=Nc2ccccc2Sc2ccccc21 | H37Rv |  |  | broth dilution |  | MIC |  | 250 µg/mL
N#C/C(=C\c1ccc(F)cc1)n1nc2ccccc2n1 |  |  |  |  |  | EC50 |  | >12.5 µg/mL
Cc1ccc(C(=O)NCc2ccccn2)c(O)c1 | H37Rv |  |  |  | 14 d | MIC |  | 62.5 µM
COc1ccc(OC)c(C2SCC(=O)N2NC2=Nc3ccccc3Sc3ccccc32)c1 | H37Rv |  |  | broth dilution |  | MIC |  | 500 µg/mL
OCCNC(=S)C(=S)NCCO | H37Rv |  |  | resazurin |  | MIC bound |  | >6.25 µg/mL
COc1cccc2c1cc1c3c(cc4c(c32)OCO4)C(=O)N1 | H37RvEr |  |  | resazurin |  | MIC |  | 12.5 µg/mL
CO[C@H]1/C=C/O[C@@]2(C)Oc3c(C)c(O)c4c(O)c(cc(OCC(=O)NC(C)(C)C)c4c3C2=O)NC(=O)/C(C)=C\C=C\[C@H](C)[C@H](O)[C@@H](C)[C@@H](O)[C@@H](C)[C@H](OC(C)=O)[C@@H]1C | H37Rv |  |  |  |  | MIC |  | 0.09 µg/mL
O=C1[C@H](Cl)[C@H](c2ccccc2[N+](=O)[O-])N1NC1=Nc2ccccc2Sc2ccccc21 | H37Rv |  |  | broth dilution |  | MIC |  | 1000 µg/mL
CC(C)(C)NC(=O)C1c2ccccc2CCN1c1cc2c(=O)c(C(=O)O)c3n(c2cc1F)CS3 | H37Rv |  |  | agar |  | MIC |  | 3.24 µM
O=C(NCc1ccccc1)c1cc(Cl)ccc1O | H37Rv |  |  |  | 14 d | MIC |  | 62 µM
CN(C)C(=O)Sc1ccc(-c2c(-c3ccccc3)oc3ccc4ccccc4c23)cc1 | H37Rv |  | VERO | BACTEC |  | MIC |  | 1.6 µg/mL
N#C/C(=C\c1ccc(F)cc1)n1nnc2ccccc21 |  |  |  |  |  | inhibition | 12.5 µg/mL | 5%
CCCC1C(C(=O)OCC)C(=O)NC1(C(=O)OCC)C(=O)OCC | H37Rv |  |  | BACTEC |  | MIC bound |  | >12.5 µg/mL
O=C(N/N=C/c1cccc(Cl)c1)c1ccc(F)cc1 | H37Rv |  |  |  |  | inhibition | 6.25 µg/mL | 57%
O=C1O[C@H](CO)[C@H](O)[C@H](O)[C@H]1O | H37Rv |  |  | resazurin |  | MIC bound |  | >6.25 µg/mL
O=C(NCc1cccnc1)c1cc(Br)ccc1O | H37Rv |  |  |  | 14 d | MIC |  | 125 µM
Cc1ccc2ccc3ccc(C)nc3c2n1 | H37Rv |  |  | BACTEC |  | MIC bound |  | >12.5 µg/mL
O=C(O)c1c2n(c3cc([N+](=O)[O-])c(N4CCN(C(c5ccccc5)c5ccc(Cl)cc5)CC4)cc3c1=O)CS2 | H37Rv |  |  | agar |  | MIC |  | 11.1 µM
CO[C@H]1/C=C/O[C@@]2(C)Oc3c(C)c(O)c4c(O)c(c5c(c4c3C2=O)NC2(CCN(CC(C)C)CC2)N=5)=NC(=O)/C(C)=C\C=C\[C@H](C)[C@H](O)[C@@H](C)[C@@H](O)[C@@H](C)[C@H](OC(C)=O)[C@@H]1C | Strain 152-162 (H526R/P/Y/D) |  |  |  |  | MIC |  | 48 µg/mL

A second listing of 4 rows from above:

smiles	strain	changes	cells	method	setting	endpoint	tested at	value
CC1CN(c2cc3c(cc2F)c(=O)c(C(=O)O)cn3-c2ccc(F)cc2F)CCN1	ATCC 35830					MBC		2 µg/mL
O=C(NCc1cccnc1)c1cc(Br)ccc1O	H37Rv				14 d	MIC		125 µM
COc1ccc(/C=C/C(=O)c2c(O)cc(OC)cc2OC)cc1						EC50		>12.5 µg/mL
CCCCCCOc1cccc(NC(=O)OCCN2CCCCCC2)c1	My 331/88					MIC		8 µM